From paper PMC6272715, “Discovery of Novel Small Molecule Anti-HCV Agents via the CypA Inhibitory Mechanism Using O-Acylation-Directed Lead Optimization” (Molecules, 2015)

Test system: JFH1-2a virus (wild type)
Assay: HCV virus assay, JFH1-2a wild type, Huh 7.5.1 cells
Details: JFH1-2a virus assay EC50 ratio

## CCCCCCCC(=O)Oc1cccc(O)c1C(=O)NC(=O)NC1c2ccccc2-c2ccccc21 [Compound 25, 1-(2-Hydroxy-6-n-Octanoyloxybenzoyl)-3-(9H-fluoren-9-yl)-urea]
  fold more potent than 1 in virus assay: 3.5 fold
  fold more potent than CsA in virus assay: 2.1 fold
